# Experimental data taken from PubChem BioAssay AID1478 (National Center for Advancing Translational Sciences (NCATS), 2009).
# Protein sequences, listed by entry. Tags and fused reporters are not part of them. Residues count along the entry.
# UniProt P25779, 123-467 limits assumed: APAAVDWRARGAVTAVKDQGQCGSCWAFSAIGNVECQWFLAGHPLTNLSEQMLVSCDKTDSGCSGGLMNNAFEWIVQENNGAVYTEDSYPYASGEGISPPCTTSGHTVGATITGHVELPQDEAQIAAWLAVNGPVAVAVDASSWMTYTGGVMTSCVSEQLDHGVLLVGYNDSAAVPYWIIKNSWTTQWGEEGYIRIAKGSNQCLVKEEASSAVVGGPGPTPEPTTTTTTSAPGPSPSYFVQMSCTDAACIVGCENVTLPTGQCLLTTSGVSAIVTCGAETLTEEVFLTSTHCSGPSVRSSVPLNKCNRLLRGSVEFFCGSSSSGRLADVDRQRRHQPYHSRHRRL
# “And” between values parts separate entries of the source, which are not always exact repeats. Equal values may be shown once. Only a part is listed here, and it is no random draw. The source made the active and inactive calls. Calls come from the whole dose curve; as a rule, active = well fitted inhibition curve with a large enough effect; inconclusive = small, poorly fitted or top-dose-only effect; inactive = flat fitted curve, though single readings scatter.
# Target: Cruzipain (Trypanosoma cruzi) (UniProt P25779)
# Assay: qHTS Assay for Promiscuous and Specific Inhibitors of Cruzain (with detergent); note: nearly all actives have a fitted effect of over 40% in size
# Conditions: purified cruzain, Z-FR-AMC fluorescence, 0.01% Triton
# Protocol: Cruzain (3.4.22.51) is a cysteine protease from the tropical parasite Trypanosoma cruzi. Dual qHTS experiment was performed against the NCGC compound collection in order to 1) identify novel inhibitors of the enzyme and 2) profile the compound collection for promiscuous inhibitors operating via colloidal aggregation (by performing detergent-free and detergent-containing comparison screens). Cruzain was assayed by the use of fluorogenic coumarin-based substrate Z-FR-AMC: proteolytic cleavage releases AMC, whose fluorescence is measured at 360 nm excitation and 450 nm emission. Purified cruzain was supplied by the labs of Prof. James McKerrow and Brian Shoichet, UC San Francisco.
# This assay had 0.01% Triton X-100 concentration. See also releated assay "qHTS Assay for Promiscuous and Specific Inhibitors of Cruzain (without detergent)" with 0.00005% Triton X-100.
# See following references for additional details:
# Assay Provider: Shoichet, Brian; University of California, San Fancisco
# Screening Center PI: Austin, C.P.
# Screening Center: NIH Chemical Genomics Center [NCGC]
# Buffer: 100 mM Sodium Acetate, pH 5.5, 5 mM DTT, Triton X-100 concentration: 0.01%.
# Buffer in columns 3 and 4 as negative control (no enzyme).
# Substrate solution: 2 uM final concentration of Z-FR-AMC (catalog number I-1160, Bachem) dispensed throughout the plate.
# Enzyme: 1.5 nM Cruzain final concentration in columns 1, 2, 5-48. Column 1 is neutral (100% activity). Column 2 contained titration of covalent inhibitor K11777, starting concentration 1 mM, then 1:2 dilution in duplicate).
# Three uL of enzyme or buffer were dispensed to 1536-well Greiner black solid bottom plates. Compounds and controls (23 nL) were transferred via Kalypsys PinTool. The plates were incubated for 15 min at room temperature, and then 1 uL of substrate solution was added to start the reaction. The plates were immediately transferred to and read 4 times every 30 seconds for 2 min on ViewLux High-throughput CCD imager (Perkin-Elmer) using 360 nm excitation and 450 nm emission fluorescence protocol. The fluorescence intensity difference between the third and the first time points (time lapse of 60 seconds) was used to compute reaction progress.
row,SMILES,"max response, negative = inhibition"
1,CN(C(=O)Cc1ccc(Cl)c(Cl)c1)[C@@H]1CCCC[C@H]1N1CCCC1,inactive: -8.99%
2,Clc1n[nH]nc1-c1nn[nH][15n]1,inactive: 0.405%
3,CN(CCCl)Cc1cc(Cl)c(NC2=NCCN2)c(Cl)c1,inactive: -12.2%
4,O=P1(Nc2ccccn2)COc2ccccc2OC1,inactive: -2.19%
5,Cc1ccc(OCC(=O)OC2CN3CCC2CC3)cc1 (centres undefined),inactive: -1.64%
6,O=P1(Nc2ccc(Br)cn2)COc2ccccc2OC1,inactive: 1.17%
7,CP(=O)(Nc1ccc(SC(F)(F)F)cc1)Oc1ccccc1 (centres undefined),inactive: -8.68%
8,COc1ccccc1OP(C)(=O)Nc1c(C)cccc1C (centres undefined),inactive: 6.13%
9,CN1CCCCC1COC(=O)C1(O)c2ccccc2CCc2ccccc21 (centres undefined),inactive: 0.574%
10,O=P1(Nc2ncccn2)COc2ccccc2OC1,inactive: -4.34%
11,COc1cc(C2NCCC3(OCCO3)C2(C)C)cc(OC)c1OC.O=[N+]([O-])c1cc([N+](=O)[O-])c(O)c([N+](=O)[O-])c1 (centres undefined),inactive: -1.82%
12,Cc1nn(-c2ccccc2)c2c1P(=O)(N1CCOCC1)N(C)C(c1ccccc1)=N2 (centres undefined),inactive: 2.69%
13,O=[N+]([O-])c1ccc2c(c1)nnn2O,inactive: -3.95%
14,CC1=NCCc2c1[nH]c1ccccc21.O=[N+]([O-])c1cc([N+](=O)[O-])c(O)c([N+](=O)[O-])c1,inactive: -14.2%
15,O=[N+]([O-])OCC(CO[N+](=O)[O-])(CO[N+](=O)[O-])CO[N+](=O)[O-],inactive: 2.99%
16,Cc1ccc([N+](=O)[O-])cc1[N+](=O)[O-],inactive: 2.29%
17,CCOP1(=S)c2c(C)nn(CCC#N)c2N=C(c2ccc(F)cc2)N1C (centres undefined),inactive: 4.07%

row,SMILES,"max response, negative = inhibition"
1,CN(C(=O)Cc1ccccc1)[C@@H]1CC[C@]2(CCCO2)C[C@H]1N1CCCC1,inactive: -8.11%
2,NC(=O)Nc1ccc([As](=O)(O)O)cc1,inactive: 0.193% and inactive: 3%
3,O=[N+]([O-])CC(O)c1ccc([N+](=O)[O-])cc1 (centres undefined),inactive: 6.52%
4,O=[As](O)(O)c1ccc([As](=O)(O)O)cc1,inactive: 7.07%
5,CCOP1(=S)c2c(C)nn(CCC#N)c2N=C(c2ccccc2F)N1C (centres undefined),inactive: -1.39%
6,O=[N+]([O-])c1cccc([N+](=O)[O-])c1,inactive: 1.13%
7,O=P(Nc1nccs1)(c1ccccc1)c1nc2ccccc2s1 (centres undefined),inactive: 0.261%
8,CCOP(=O)(Nc1cccc2ccccc12)OCC,inactive: -1.84%
9,Cc1ccc(C)c(NP(C)(=O)Oc2ccccc2)c1 (centres undefined),inactive: -1.18%
10,Cc1cc(C)cc(OP(C)(=O)Nc2ccccn2)c1 (centres undefined),inactive: 7.71%
11,NS(=O)(=O)Cc1ccc([As](=O)(O)O)cc1,inactive: 6.99%
12,O=C(CC(=O)c1ccccc1)O[C@H]1CN2CCC1CC2,inactive: 0.823%
13,Cc1ccc(NCCc2c([N+](=O)[O-])cc([N+](=O)[O-])cc2[N+](=O)[O-])cc1,inactive: -5.3%
14,CCOC(=O)c1ccc(NP(C)(=O)Oc2cc(C)cc(C)c2)cc1 (centres undefined),inactive: -5.66%
15,Cc1cccc(OCC(=O)OC2CN3CCC2CC3)c1 (centres undefined),inactive: 6.99%
16,Cc1cc(C)cc(OP(C)(=O)Nc2ccc(C)cc2C)c1 (centres undefined),inactive: 4.54%
17,CN(C(=O)Cc1ccc(Cl)c(Cl)c1)[C@@H]1CC[C@]2(CCCO2)C[C@H]1N1CCCC1,inactive: 5.57%
